In PubChem BioAssay AID1258 (University of Pittsburgh Molecular Library Screening Center, 2008) one finds inhibition data, which are given here for one compound.

SMILES strings stand for the structures. The list shows a part of the results, in another mix than the full data. Activity calls are given as the source filed them.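 How the source made its calls: active means inhibition above about 50% in both repeat tests (limit read from the data); inconclusive means one repeat under the set limit, the other over it; inactive means both repeats under the set limit.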

The assay can be described thus: Leishmania major promastigote growth inhibition, confirmation, 1 µM repeat of primary hits (AID 1258). The conditions noted are these: L. major promastigote growth, resazurin fluorescence, 48 h; at 1 µM; active compounds read high. In outline: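 System: Leishmania major promastigotes, whole-parasite viability assay; Quantity: 5,000 promastigotes per well; Buffer or medium: medium 199 plus 10% heat-inactivated FBS; Compound: 1 µM single concentration; Incubation: 44 h compound exposure, 4 h dye incubation, 28 °C; Read-out: promastigote viability inhibition; Controls: DMSO high/low controls plus tamoxifen reference.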
For `O=C(OC1CN2CCC1CC2)C1c2ccccc2C=Cc2ccccc21` (stereo unspecified), the inhibition is inactive: 2.79%.
